Compound potency records, mixed from different reports. Data source: NIAID ChemDB in PubChem.

Shared fields: whole-cell or culture tests; organism: Mycobacterium tuberculosis

ECn is the concentration giving n% inhibition of infection, replication or growth. Percent inhibition refers to the dose given; in toxicity tests it is the harm to the cells. An empty or dashed field is not shown. a–b is a range or a potency band. Conditions beyond the fields shown may differ between rows. MIC50, MIC90 and the like: level of inhibition, or share of isolates inhibited. MIC bound: limit read from a one-dose screen.

SMILES,endpoint,read by,changes,strain or isolate,tested at,result
O=C1NN2CCN=C2c2ncccc21,MIC,BACTEC,-,H37Rv,-,≥12.5 µg/mL
CC1CN(c2cc3c(cc2F)c(=O)c(C(=O)O)cn3C(C)(C)C)CCN1,MIC,-,-,H37Rv,-,0.39 µg/mL
CN1CCN(Cc2cccc(NC(=O)c3ccc(-c4ccccc4)cc3)c2)CC1,MIC,-,-,103471,-,8 µg/mL
CCCCCCCCc1ccc2nc3n(c(=O)c2c1)-c1ccc(Cl)cc1C3=O,MIC,-,-,H37Rv,-,1 µg/mL
COC(=O)c1cc(-c2ccc(F)cc2F)ccc1O,inhibition,resazurin,-,H37Rv,6.25 µg/mL,30%
O=C(c1ccccc1)N1c2ccccc2Sc2ccccc21,MIC90,resazurin,-,H37Rv,-,32 µg/mL
CO[C@H]1/C=C/O[C@@]2(C)Oc3c(C)c(O)c4c(O)c(c(/C=N/N5CCN(C)CC5)c(O)c4c3C2=O)NC(=O)/C(C)=C\C=C\[C@H](C)[C@H](O)[C@@H](C)[C@@H](O)[C@@H](C)[C@H](OC(C)=O)[C@@H]1C,MIC,resazurin,Rifampicin-resistant D94N,H37Rv,-,0.02 µM
CCCCCN1C2=C(Sc3ccccc31)C(=O)CCC2,MIC90,resazurin,-,H37Rv,-,>32 µg/mL
CCCCCCn1c(C)ccc1C,MIC,-,-,103471,-,>16 µg/mL
CCCCCN1C2=C(Sc3ccccc31)C(=O)OC2,MIC90,resazurin,-,H37Rv,-,>32 µg/mL
CCOc1ccccc1NC(=O)CC(=O)N1N=C(C)C(N=Nc2ccccc2C(=O)O)C1=O,inhibition,BACTEC,-,H37Rv,12.8 µg/mL,-13%
CCOC(=O)c1c(N)sc2c1CCN(C(=O)OC(C)(C)C)C2,MIC,resazurin,-,H37Rv,-,>300 µM
Cc1cccc2nc3n(c(=O)c12)-c1ccc(F)cc1C3=O,MIC,-,-,H37Rv,-,0.13 µg/mL
CCOC(=O)c1c(N(F)C(=O)c2c(F)c(F)c(F)c(F)c2F)sc2c1CCN(C(=O)OC(C)(C)C)C2,MIC,resazurin,-,H37Rv,-,>100 µM
Cc1ccc(NC(=S)NC(=O)/C=C/c2ccccc2)cc1Cl,inhibition,BACTEC,-,H37Rv,12.5 µg/mL,96%
CN1CCN(Cc2cccc(NC(=O)/C=C/c3ccccc3)c2)CC1,MIC,-,-,103471,-,8 µg/mL
O=C(N/N=C/c1ccc(O)cc1)c1cc(-c2ccc(F)cc2F)ccc1O,MIC,resazurin,-,H37Rv,-,>6.25 µg/mL
CN1CCN(Cc2ccccc2NC(=O)/C=C/c2ccccc2)CC1,MIC,-,-,103471,-,>16 µg/mL
COc1cc2oc3c(c(=O)c2c(O)c1/C=C/C(C)C)C(C=C(C)C)Oc1cc(O)ccc1-3,inhibition,BACTEC,-,H37Rv,12.5 µg/mL,94%
CO[C@H]1/C=C/O[C@@]2(C)Oc3c(C)c(O)c4c(O)c(c5c(c4c3C2=O)NC2(CCN(CC(C)C)CC2)N=5)=NC(=O)/C(C)=C\C=C\[C@H](C)[C@H](O)[C@@H](C)[C@@H](O)[C@@H](C)[C@H](OC(C)=O)[C@@H]1C,MIC50,-,-,6 strains (rifampicin-resistant),-,12.5 µg/mL
CO[C@H]1/C=C/O[C@@]2(C)Oc3c(C)c(O)c4c(O)c(c(/C=N/N5CCN(C)CC5)c(O)c4c3C2=O)NC(=O)/C(C)=C\C=C\[C@H](C)[C@H](O)[C@@H](C)[C@@H](O)[C@@H](C)[C@H](OC(C)=O)[C@@H]1C,MIC,-,-,Clinical isolate 14,-,0.5 µg/mL
CN1CCN(Cc2cccc(NC(=O)c3ccc(Cl)cc3)c2)CC1,MIC,-,-,103471,-,>16 µg/mL
CCOC(=O)c1cc(-c2ccccc2)sc1NC(=O)c1ccccc1,MIC,resazurin,-,H37Rv,-,>200 µM
CSc1cccc(-n2c3nc(=O)n(C)c(=O)c-3nc3ccccc32)c1,inhibition,BACTEC,-,H37Rv,12.5 µg/mL,42%
O=C(N/N=C/c1cccc(F)c1)c1cc(-c2ccc(F)cc2F)ccc1O,inhibition,resazurin,-,H37Rv,6.25 µg/mL,23%
O=C1c2cc(Cl)ccc2-n2c1nc1ncccc1c2=O,MIC,-,-,H37Rv,-,0.03 µg/mL
CCN1CCN(c2c(F)cc3c(=O)c(C(=O)O)cn(C4CC4)c3c2OC)CC1,MIC,-,-,H37Rv,-,0.39 µg/mL
CCCCCCn1c(C)cc(CN2CCN(C)CC2)c1C,MIC,-,-,103471,-,4 µg/mL
Cn1c([N+](=O)[O-])cnc1COC(=O)Nc1ccc(N(CCCl)CCCl)cc1,MIC bound,resazurin,-,H37Rv,-,>6.25 µg/mL
CCOC(=O)c1ccc2c(c1)C(=O)c1nc3ncccc3c(=O)n1-2,MBC,-,-,H37Rv,-,4 µg/mL
Nc1ncnc2c1ncn2[C@@H]1O[C@H](CNS(=O)(=O)NC(=O)c2ccccc2[O-])[C@@H](O)[C@H]1O,MIC,-,-,H37Rv,-,0.19 µM
CC1(c2nc3cc(Cl)c(Cl)cc3[nH]2)CCC(C(=O)O)C(C)(C)O1,inhibition,resazurin,-,H37Rv,6.25 µg/mL,8%
NC(=O)c1cnccn1,MIC,-,-,DHMH5207 niacin-negative,-,>2048 µg/mL
O=C(Nc1ccc(Cl)cc1)Sc1nnc2c(n1)[nH]c1ccccc12,inhibition,BACTEC,-,H37Rv,6.25 µg/mL,32%
Cc1c(CN2CCOCC2)c(CN2CCOCC2)c(-c2ccc(Cl)cc2)n1Cc1ccccc1,EC50,-,-,H37Rv,-,<12.5 µg/mL
C[C@@H]1CN(c2cc3c(cc2F)c(=O)c(C(=O)O)cn3C(C)(C)C)C[C@H](C)N1,MIC,-,-,H37Rv,-,0.39 µg/mL
CC1COc2c(N3CCN(C)CC3)c(F)cc3c(=O)c(C(=O)O)cn1c23,MIC,-,-,469 (streptomycin isoniazid rifampicin-resistant),-,4 µg/mL
CC[C@H]1OC(=O)[C@H](C)[C@@H](O[C@H]2C[C@@](C)(OC)[C@@H](O)[C@H](C)O2)[C@H](C)[C@@H](O[C@@H]2O[C@H](C)C[C@H](N(C)C)[C@H]2O)[C@](C)(O)C[C@@H](C)CN(C)[C@H](C)[C@@H](O)[C@]1(C)O,MIC,-,-,71 isolates,-,3.6–57.6 µg/mL
Cc1c(CN2CCOCC2)cc(-c2ccc(Cl)cc2)n1C1CCCCC1,MIC,-,-,103471,-,8 µg/mL
Cc1ccc(-c2nn(-c3ccc(Cl)cc3)cc2C2CC(c3ccc4c(c3)CCO4)=NN2)cc1,MIC,resazurin,-,H37Rv,-,50 µg/mL
CN[C@@H]1[C@H](O)[C@H](NC)[C@H]2O[C@@]3(O)C(=O)C[C@@H](C)O[C@H]3O[C@@H]2[C@H]1O,MIC,broth dilution,-,H37Rv-HL-15,-,>200 µg/mL
CNC(=S)N/N=C/c1cnccn1,MIC,BACTEC,-,H37Rv,-,≥12.5 µg/mL
CCOC(=O)c1c(NC(=O)c2c(F)c(F)c(F)c(F)c2F)sc2c1CCN(CC)C2,MIC,resazurin,Rifampicin-resistant D94N,H37Rv,-,0.37 µM
O=C1c2cc(C3CCCCC3)ccc2-n2c1nc1ccncc1c2=O,MIC,-,-,H37Rv,-,0.015 µg/mL
Nc1ncnc2c1ncn2[C@@H]1C[C@H](COS(=O)(=O)NC(=O)c2ccccc2O)[C@@H](O)[C@H]1O,MIC,-,-,H37Rv,-,1.56 µM
Cc1ccc(NC(=O)NC2c3ccccc3Sc3ccccc32)cc1,MIC90,resazurin,-,H37Rv,-,31 µg/mL
CNC(=O)c1ccc(/C=C/c2c[nH]c3ccccc23)[n+](C)c1.[I-],inhibition,BACTEC,-,H37Rv,12.5 µg/mL,1%
c1ccc(ON2N=C(c3ccccc3)C(n3ccnc3)C2c2ccccc2)cc1,MIC,-,-,H37Rv,-,8 µg/mL
Nc1ccc(C(=O)O)c(O)c1,MIC,-,-,Clinical isolate 2,-,>100 µg/mL
Clc1ccc(-n2cc(C3CC(c4ccc5c(c4)CCO5)=NN3)c(-c3ccccc3)n2)cc1,MIC,resazurin,-,H37Rv,-,12.5 µg/mL
CCc1cc(C(N)=S)ccn1,MIC,-,-,H37Rv,-,2 µg/mL
Cc1nn(C(=O)c2ccncc2)c(C)c1N=Nc1cccc(Cl)c1,inhibition,BACTEC,-,H37Rv,12.5 µg/mL,27%
Cc1ccc(C)n1C1CCCCC1,MIC,-,-,H37Rv,-,<12.5 µg/mL
Fc1ccc(ON2N=C(c3ccc(Br)cc3)C(n3ccnc3)C2c2ccc(Br)cc2)cc1,MIC,-,-,H37Rv,-,4 µg/mL
Nc1ncnc2c1ncn2[C@H]1CC[C@@H](COS(=O)(=O)NC(=O)c2ccccc2O)C1,MIC,-,-,H37Rv,-,>200 µM
CN[C@@H]1[C@H](O)[C@H](NC)[C@H]2O[C@@]3(O)[C@H](NC(=O)Cc4cccc(OC)c4)C[C@@H](C)C[C@H]3O[C@@H]2[C@H]1O,MIC,broth dilution,-,H37Rv,-,12.5 µg/mL
CCCCN1c2ccccc2Sc2ccccc21,MIC90,resazurin,-,H37Rv,-,>32 µg/mL
Cc1ccc(/C=C2\CN(C)CC3=C2NC(=S)NC3c2ccc(C)cc2)cc1,MIC bound,BACTEC,-,H37Rv,-,>12.5 µg/mL
O=C1c2cc(I)ccc2-n2c1nc1c(I)cc(I)cc1c2=O,MIC,-,-,H37Rv,-,1 µg/mL
O=C(N/N=C/c1ccc([N+](=O)[O-])o1)c1cc(-c2ccc(F)cc2F)ccc1O,inhibition,resazurin,-,H37Rv,6.25 µg/mL,34%
O=C1CC2(C(=O)O)CC3CC2C(O1)C3I,MIC bound,BACTEC,-,H37Rv,-,>12.5 µg/mL
Cc1ccc(C2=NNC(c3cn(-c4ccc(Cl)cc4)nc3-c3ccc(Cl)cc3)C2)o1,MIC,resazurin,-,H37Rv,-,25 µg/mL
COC(=O)C1CC(OC(C)=O)C(O)C(O)C1OC(C)=O.[O]=[Os]=[O],inhibition,BACTEC,-,H37Rv,12.5 µg/mL,30%
CCC1CN(c2c(F)cc3c(=O)c(C(=O)O)cn(C4CC4)c3c2OC)CCN1,MIC,-,-,H37Rv,-,0.1 µg/mL
O=C(Nc1cccc(Cn2ccnc2)c1)c1ccc(Cl)cc1,MIC,-,-,103471,-,>16 µg/mL
Cc1c(CN2CCN(C)CC2)c(CN2CCN(C)CC2)c(-c2ccc(Cl)cc2)n1Cc1ccccc1,MIC,-,-,103471,-,>64 µg/mL
Nc1nc(Cl)cc(Nc2ccccc2Br)n1,inhibition,BACTEC,-,H37Rv,12.5 µg/mL,30%
CCCCCCn1c(C)cc(CN2CCOCC2)c1C,MIC,-,-,103471,-,8 µg/mL
O=C1c2ccccc2C(=O)N1CCC(=O)N1c2ccccc2Sc2ccccc21,MIC90,resazurin,-,H37Rv,-,31 µg/mL
O=C(CN1CCCCC1)N/N=C\C(=O)c1ccc(Sc2ccccc2)cc1,MIC,-,-,-,-,>50 µg/mL
CCCCCC/C(CC(=O)CCC(=O)NCCc1ccccc1)=N/NC(=O)c1ccc2ccccc2c1O,inhibition,BACTEC,-,H37Rv,12.5 µg/mL,11%
CN[C@@H]1[C@H](O)[C@H](NC)[C@H]2O[C@@]3(O)[C@H](NC(=O)Cc4cccnc4)C[C@@H](C)C[C@H]3O[C@@H]2[C@H]1O,MIC,broth dilution,-,H37Rv,-,12.5 µg/mL
CC1CC2=Cc3c(O)c(O)cc(O)c3C(=O)C2=CO1,MIC bound,BACTEC,-,H37Rv,-,>12.5 µg/mL
O=C1c2cc(I)ccc2-n2c1nc1ncccc1c2=O,MIC,-,-,TN2557RFLF:P (MDR),-,0.03 µg/mL
Cc1ncc([N+](=O)[O-])n1CCSC(=N)N,MIC bound,resazurin,-,H37Rv,-,>6.25 µg/mL
CCCCCCCCc1ccc2c(c1)C(=O)c1nc3ccncc3c(=O)n1-2,MIC,-,-,TN913RFLP:C (DRUG sensitive),-,≤0.015 µg/mL
Cc1ccc(S(=O)(=O)C(=S)N(C)N(C)C)cc1,MIC,-,-,CS-R,-,6.4 µg/mL
O=C(CN1CCCC1)N/N=C\C(=O)c1ccccc1,MIC,-,-,-,-,>50 µg/mL
O=C(Nc1ccccc1Cn1ccnc1)c1ccc(Cl)cc1,MIC,-,-,103471,-,>16 µg/mL
Cc1c(CN2CCOCC2)cc(-c2ccc(Cl)cc2)n1Cc1ccccc1,MIC,-,-,103471,-,8 µg/mL
c1ccc(OCCCN2c3ccccc3Sc3ccccc32)cc1,MIC90,resazurin,-,H37Rv,-,>32 µg/mL
Nc1cccc2[nH]c(=O)c3ccccc3c12,MIC bound,BACTEC,-,H37Rv,-,>12.5 µg/mL
O=C(CN1CCCC1)N/N=C\C(=O)c1ccc(-c2ccccc2)cc1,MIC,-,-,-,-,>50 µg/mL

For reference, 7 entries again:

SMILES | endpoint | read by | changes | strain or isolate | tested at | result
Cc1ncc([N+](=O)[O-])n1CCSC(=N)N | MIC bound | resazurin | - | H37Rv | - | >6.25 µg/mL
C[C@@H]1CN(c2cc3c(cc2F)c(=O)c(C(=O)O)cn3C(C)(C)C)C[C@H](C)N1 | MIC | - | - | H37Rv | - | 0.39 µg/mL
c1ccc(OCCCN2c3ccccc3Sc3ccccc32)cc1 | MIC90 | resazurin | - | H37Rv | - | >32 µg/mL
Nc1ncnc2c1ncn2[C@H]1CC[C@@H](COS(=O)(=O)NC(=O)c2ccccc2O)C1 | MIC | - | - | H37Rv | - | >200 µM
CCc1cc(C(N)=S)ccn1 | MIC | - | - | H37Rv | - | 2 µg/mL
CCN1CCN(c2c(F)cc3c(=O)c(C(=O)O)cn(C4CC4)c3c2OC)CC1 | MIC | - | - | H37Rv | - | 0.39 µg/mL
Clc1ccc(-n2cc(C3CC(c4ccc5c(c4)CCO5)=NN3)c(-c3ccccc3)n2)cc1 | MIC | resazurin | - | H37Rv | - | 12.5 µg/mL